Results of unrelated studies side by side (data: NIAID ChemDB).

All rows: tests in culture; agent: Staphylococcus aureus

Conditions beyond the fields shown may differ between rows. A number after MIC or MFC names an inhibition level or a share of isolates. An empty or dashed field is not shown. Two numbers with a dash give a range or band.

smiles | strain or isolate | endpoint | result
CCCCCCCCCCCC[N+](C)(C)COCCCCC | ATCC 6538 | MIC | 3.57 µM
CNc1c(F)cc2c(=O)c(C(=O)O)cn(-c3cc(N)c(F)cc3F)c2c1C | MR8736 (methicillin-resistant) | MIC | 1 µg/mL
Nc1ccc(OC[C@H]2CN(c3ccc(C4=CCOCC4)c(F)c3)C(=O)O2)cn1 | 122 (novobiocin-resistant) | MIC | 4 µg/mL
CC(=O)NC[C@H]1CN(c2ccc(-c3ccnn3C)c(F)c2)C(=O)O1 | UC6685 (methicillin-resistant) | MIC | ≤0.5 µg/mL
CC(=O)NC[C@H]1CN(c2ccc(NC(=O)c3ccco3)c(F)c2)C(=O)O1 | ATCC 29213 (linezolid-resistant) | MIC | >64 µg/mL
CCN(CC)CCN(C)c1cc2c(cc1F)c(=O)c(C(=O)O)cn2C1CC1 | ATCC 6538P | MIC | >100 µg/mL
O=C(CC(=O)Nc1ccc(F)cc1)Nc1ccc(F)cc1 | MI273 | MIC | >300 µM
C=CCCC(=O)NC[C@H]1CN(c2ccc(N3CCOCC3)c(F)c2)C(=O)O1 | ATCC 29213 (linezolid-resistant) | MIC | >64 µg/mL
CC(=O)NC[C@H]1CN(c2ccc(N(C)C(=O)c3ccno3)c(F)c2)C(=O)O1 | ATCC 29213 (linezolid-resistant) | MIC | >64 µg/mL
COC(CNc1cc2c(cc1F)c(=O)c(C(=O)O)cn2C1CC1)OC | ATCC 6538P | MIC | >100 µg/mL
C[C@H]1COc2c(N3CCN(C)CC3)c(F)cc3c(=O)c(C(=O)O)cn1c23 | OC39 methicillin-susceptible | MIC | 0.25 µg/mL
CC(=O)NC[C@H]1CN(c2ccc(-c3cc(C#N)cs3)c(F)c2)C(=O)O1 | UC9213 (methicillin-susceptible) | MIC | ≤0.5 µg/mL
CCOCCCNc1cc2c(cc1F)c(=O)c(C(=O)O)cn2C1CC1 | ATCC 5278 (methicillin-resistant) | MIC | >100 µg/mL
CC1=NN=C(OC[C@H]2CN(c3ccc(C4=CCOCC4)c(F)c3)C(=O)O2)C1 | 078 (oxford) | MIC | 4 µg/mL
CC(C)NCCCNc1cc2c(cc1F)c(=O)c(C(=O)O)cn2C1CC1 | ATCC 5278 (methicillin-resistant) | MIC | 12.5 µg/mL
CC(=O)NC[C@H]1CN(c2ccc(-c3ccn(CCC#N)n3)c(F)c2)C(=O)O1 | UC9213 (methicillin-susceptible) | MIC | 4 µg/mL
COCC(=O)N1CCC(Oc2ccc(N3C[C@H](CNC(C)=O)OC3=O)cn2)CC1 | OC4172 methicillin-susceptible | MIC | >64 µg/mL
CC1COc2c(N3CCN(C)CC3)c(F)cc3c(=O)c(C(=O)O)cn1c23 | Methicillin-susceptible | MIC90 | 0.25–2 µg/mL
CCCCCCCCCCCC[N+](C)(C)COCCC(C)C | ATCC 6538 | MIC | 3.57 µM
CC(=O)NC[C@H]1CN(c2ccc(C3CCS(=O)(=O)CC3)c(F)c2)C(=O)O1 | UC9213 | MIC | 2 µg/mL
COc1c(N2CCNC(C)C2)c(F)cc2c(=O)c(C(=O)O)cn(C3CC3)c12 | methicillin sensitive (68 strains) | MIC90 | 0.12 µg/mL
CC(=O)NC[C@H]1CN(c2ccc(OC3CCN(C(=O)CO)CC3)c(F)c2)C(=O)O1 | OC4172 methicillin-susceptible | MIC | 4 µg/mL
CC(C)=CCc1c(O)ccc2c1OC1c3cc4ccoc4cc3OCC21 |  | MIC | 72.1 µg/mL
CC(=O)NC[C@H]1CN(c2ccc(-c3cc(CO)on3)c(F)c2)C(=O)O1 | UC6685 (methicillin-resistant) | MIC | 1 µg/mL
O=C(/C=C/c1ccc(Cl)cc1Cl)NC[C@H]1CN(c2ccc(N3CCOCC3)c(F)c2)C(=O)O1 | ATCC 29213 (linezolid-resistant) | MIC | >16 µg/mL
O=C(NCCO)NNC(=O)Nc1cc(C(F)(F)F)cc(C(F)(F)F)c1 | MI273 | MIC | >300 µM
CCCCCCCCCCCC[N+](C)(C)COCCCCCCCCCCC | ATCC 6538 | MIC | 11.5 µM
O=C(CO)N1CC=C(c2c(F)cc(N3C[C@H](COc4ccon4)OC3=O)cc2F)CC1 | 122 (novobiocin-resistant) | MIC | 1 µg/mL
CCc1cc(Nc2cc(=O)n(CC3CCN(C(=O)c4ccc(Cn5cc(Cl)cn5)o4)CC3)c(=O)[nH]2)ccc1C |  | MIC | 4 µg/mL
CC(=O)NC[C@H]1CN(c2ccc(NC(=O)c3cccnc3)c(F)c2)C(=O)O1 | ATCC 29213 (linezolid-resistant) | MIC | >64 µg/mL
CC(=O)NC[C@H]1CN(c2ccc(OC3CCN(C(=O)c4ccno4)CC3)c(F)c2)C(=O)O1 | OC4172 methicillin-susceptible | MIC | 16 µg/mL
Cc1cn(-c2ccc(N3C[C@H](COc4ccon4)OC3=O)cc2F)cn1 | 122 (novobiocin-resistant) | MIC | 4 µg/mL
Cc1c(NCCCO)c(F)cc2c(=O)c(C(=O)O)cn(-c3cc(N)c(F)cc3F)c12 | 27 isolates (methicillin-resistant) | MIC50 | 0.015 µg/mL
CC(=O)NC[C@H]1CN(c2ccc(-c3cnn(C(c4ccccc4)(c4ccccc4)c4ccccc4)c3)c(F)c2)C(=O)O1 | UC9213 (methicillin-susceptible) | MIC | >32 µg/mL
CS(=O)(=O)N1CCN(c2ccc(N3C[C@H](COc4ccon4)OC3=O)cc2F)CC1 | 078 (oxford) | MIC | 4 µg/mL
CN1CCN(C)c2cc3c(cc21)c(=O)c(C(=O)O)cn3C1CC1 | ATCC 5278 (methicillin-resistant) | MIC | >100 µg/mL
CCCC[C@H](CC(=O)NO)C(=O)N1CCC[C@H]1C(=O)OC(C)(C)C | 3 strains | MIC | 1–4 µg/mL
CCCCCCCCCCCC[N+](C)(C)COCCCC | ATCC 6538 | MIC | 4.46 µM
CO/N=C/c1ccc(C(=O)Nc2ccc(N3C[C@H](CNC(C)=O)OC3=O)cc2F)o1 | ATCC 29213 (linezolid-resistant) | MIC | >64 µg/mL
Clc1cccc2c1NC(c1c[nH]c3ccc(Br)cc13)C1CCOC21 | Methicillin-resistant | MIC | 0.31 µg/mL
CO/N=C1\CN(c2nc3c(cc2F)c(=O)c(C(=O)O)cn3C2CC2)CC1CN | 38 isolates (methicillin-resistant) | MIC50 | 1 µg/mL
O=C(Nc1cccc(C2=NCCN2)c1)Nc1cccc(C(F)(F)F)c1 | MI273 | MIC | 38 µM
Cn1cc(C(=O)O)c(=O)c2cc3cc(F)c(NC4CCCCC4)cc3nc21 | LF11C128 (quinolone-resistant) | MIC | 1 µg/mL
CCCCCCCC[N+](C)(C)COCC(CC)CCCC | ATCC33592 | MBC | 74 µM
CC(=O)NCC1CN(c2ccc(N3CCCCC3)c(F)c2)C(=O)O1 | ATCC 29213 (linezolid-resistant) | MIC | >64 µg/mL
CCOC(=O)c1nc(-c2ccc(N3C[C@H](CNC(C)=O)OC3=O)cc2F)ns1 | UC9213 (methicillin-susceptible) | MIC | >16 µg/mL
CN(C)CC(=O)Nc1ccc2c(c1O)C(O)=C1C(=O)[C@]3(O)C(O)=C(C(N)=O)C(=O)[C@@H](N(C)C)[C@@H]3C[C@@H]1C2 | Oxacillin-resistant | MIC90 | 0.5 µg/mL
COc1c(N2CCNC(C)C2)c(F)cc2c(=O)c(C(=O)O)cn(C3CC3)c12 | 30 strains (methicillin-resistant) | MIC50 | 0.1 µg/mL
CC[C@H]1OC(=O)[C@H](C)C(=O)[C@H](C)[C@@H](O[C@@H]2O[C@H](C)C[C@H](N(C)C)[C@H]2O)[C@@]2(C)C[C@@H](C)C(=NC(C)=O)[C@H](C)C(OC/C(=N\OCC#Cc3cccc(N)n3)CO2)[C@]1(C)O | 25 strains | MIC90 | 16 µg/mL
CCc1cc(Nc2cc(=O)n(CC3CCN(C(=O)c4ccno4)CC3)c(=O)[nH]2)ccc1C |  | MIC | 8 µg/mL
CC(C)=CCc1cc(O)cc2c1C1COc3c(ccc(O)c3CC=C(C)C)C1O2 |  | MIC | 12.8 µg/mL
CC(=O)NC[C@H]1CN(c2ccc(OC3CCN(C(=O)CNC(=O)OCc4ccccc4)CC3)c(F)c2)C(=O)O1 | OC4172 methicillin-susceptible | MIC | 32 µg/mL
COc1c(CN(C)C)cccc1C1OC(c2ccncc2)=NN1C(C)=Nc1ccccc1Cl | MTCC96 | MIC | 6.25 µg/mL
CC(C)=CCc1c(O)ccc2c1OCC1c3cc4c(cc3OC21)OC(C)(C)C=C4 |  | MIC | 78.3 µg/mL
CC(=O)NC[C@H]1CN(c2ccc(-c3cnc(C(C)=O)s3)c(F)c2)C(=O)O1 | UC6685 (methicillin-resistant) | MIC | 0.5 µg/mL
CC[C@H]1OC(=O)[C@H](C)C(=O)[C@H](C)[C@@H](O[C@@H]2O[C@H](C)C[C@H](N(C)C)[C@H]2O)[C@](C)(OC)C[C@@H](C)C(=O)[C@H](C)[C@H]2N(CCCCn3cnc(-c4cccnc4)c3)C(=O)O[C@]12C | 25 strains | MIC50 | 0.125 µg/mL
CC(=O)NC[C@H]1CN(c2ccc(NC(=O)c3ccc([N+](=O)[O-])o3)c(F)c2)C(=O)O1 | ATCC 29213 (linezolid-resistant) | MIC | 8 µg/mL
Cc1ccc2[nH]cc(C3Nc4ccc(Cl)cc4C4OCCC34)c2c1 | Methicillin-resistant | MIC | >25 µg/mL
CC(=O)NC[C@H]1CN(c2ccc3c(c2)OCc2nccn2-3)C(=O)O1 | 25470 | MIC | 0.5 µg/mL
O=C1O[C@@H](COc2ccon2)CN1c1ccc(-n2cnc(CO)c2)c(F)c1 | 078 (oxford) | MIC | 2 µg/mL
CCNc1c(F)cc2c(=O)c(C(=O)O)cn(-c3cc(N)c(F)cc3F)c2c1C | 209P | MIC | 0.008 µg/mL
Cn1cc(C(=O)O)c(=O)c2cc3cc(F)c(N4CCCCCCC4)cc3nc21 | IP8203 (quinolone-sensitive) | MIC | 1 µg/mL
CC(=O)NC[C@H]1CN(c2ccc(-c3ncon3)c(F)c2)C(=O)O1 | UC6685 (methicillin-resistant) | MIC | 4 µg/mL
O=C(Nc1ccc(C(F)(F)F)cc1)Nc1ccc(C(F)(F)F)cc1 | MI273 | MIC | 53 µM
CCN(CC)CCN(CC)c1cc2c(cc1F)c(=O)c(C(=O)O)cn2C1CC1 | ATCC 5278 (methicillin-resistant) | MIC | >100 µg/mL
O=C(CCOc1ccc(Cl)cc1Cl)NC[C@H]1CN(c2ccc(N3CCOCC3)c(F)c2)C(=O)O1 | ATCC 29213 (linezolid-resistant) | MIC | >32 µg/mL
CC(C)(C)n1cc(C(=O)O)c(=O)c2cc(F)c(N3C[C@H]4C[C@@H]3CN4)nc21 | 30 strains (methicillin-resistant) | MIC90 | 0.5 µg/mL
O=C(NC[C@H]1CN(c2ccc(C3CCS(=O)(=O)CC3)c(F)c2)C(=O)O1)C1CC1 | UC9213 | MIC | 8 µg/mL
CCc1cc(Nc2cc(=O)n(CC3CCN(C(=O)c4ccc(C(F)(F)F)o4)CC3)c(=O)[nH]2)ccc1C |  | MIC | 4 µg/mL
COc1c(CN(C)C)cccc1C1OC(c2ccncc2)=NN1C(C)=Nc1ccccc1 | MTCC 121 | MIC | 6.25 µg/mL
O=C(C(O)Sc1ccccn1)N1CC=C(c2c(F)cc(N3C[C@H](COc4ccon4)OC3=O)cc2F)CC1 | 122 (novobiocin-resistant) | MIC | 1 µg/mL
O=C(CC(=O)Nc1cc(C(F)(F)F)cc(C(F)(F)F)c1)Nc1cccc(C2=NCCN2)c1 | MI273 | MIC | 38 µM
CN1COc2c(N3CC4C5CCC(N)(CC5)C4C3)c(F)c(N)c3c(=O)c(C(=O)O)cn1c23 | 133 | MIC | 0.031 µg/mL
NC(=O)NNC(=O)Nc1cc(C(F)(F)F)cc(C(F)(F)F)c1 | MI273 | MIC | >446 µM
CC(=O)NC[C@H]1CN(c2ccc(N(C)C(=O)c3ccc([N+](=O)[O-])o3)c(F)c2)C(=O)O1 | ATCC 29213 (linezolid-resistant) | MIC | 16 µg/mL
O=C(/C=C/c1ccccc1)NC[C@H]1CN(c2ccc(N3CCOCC3)c(F)c2)C(=O)O1 | ATCC 29213 (linezolid-resistant) | MIC | >64 µg/mL

For reference, 11 entries again:

smiles	strain or isolate	endpoint	result
CC(=O)NC[C@H]1CN(c2ccc(OC3CCN(C(=O)CO)CC3)c(F)c2)C(=O)O1	OC4172 methicillin-susceptible	MIC	4 µg/mL
CC(=O)NC[C@H]1CN(c2ccc3c(c2)OCc2nccn2-3)C(=O)O1	25470	MIC	0.5 µg/mL
O=C(C(O)Sc1ccccn1)N1CC=C(c2c(F)cc(N3C[C@H](COc4ccon4)OC3=O)cc2F)CC1	122 (novobiocin-resistant)	MIC	1 µg/mL
CCc1cc(Nc2cc(=O)n(CC3CCN(C(=O)c4ccno4)CC3)c(=O)[nH]2)ccc1C		MIC	8 µg/mL
CCCCCCCCCCCC[N+](C)(C)COCCCC	ATCC 6538	MIC	4.46 µM
O=C(/C=C/c1ccc(Cl)cc1Cl)NC[C@H]1CN(c2ccc(N3CCOCC3)c(F)c2)C(=O)O1	ATCC 29213 (linezolid-resistant)	MIC	>16 µg/mL
CC(C)=CCc1c(O)ccc2c1OC1c3cc4ccoc4cc3OCC21		MIC	72.1 µg/mL
C=CCCC(=O)NC[C@H]1CN(c2ccc(N3CCOCC3)c(F)c2)C(=O)O1	ATCC 29213 (linezolid-resistant)	MIC	>64 µg/mL
CC(=O)NC[C@H]1CN(c2ccc(NC(=O)c3ccco3)c(F)c2)C(=O)O1	ATCC 29213 (linezolid-resistant)	MIC	>64 µg/mL
CCc1cc(Nc2cc(=O)n(CC3CCN(C(=O)c4ccc(Cn5cc(Cl)cn5)o4)CC3)c(=O)[nH]2)ccc1C		MIC	4 µg/mL
COc1c(CN(C)C)cccc1C1OC(c2ccncc2)=NN1C(C)=Nc1ccccc1Cl	MTCC96	MIC	6.25 µg/mL